What all share (assay): cell-based or functional assay
For test [1], the target named is HIV-1 envelope glycoprotein (gp120) of virus 7015 (HIV-1).
Test [2] deals with HIV-1 envelope glycoprotein (gp120) of virus 92US727 (HIV-1).
The target of test [3] is HIV-1 envelope glycoprotein (gp120) of virus 92US657 (HIV-1).
Test [4] addresses HIV-1 envelope glycoprotein (gp120) of virus 8320 (HIV-1).
Test [5] addresses HIV-1 envelope glycoprotein (gp120) of virus 92HT593 (HIV-1).
Test [6] has as its target HIV-1 envelope glycoprotein (gp120) of virus 7007 (HIV-1).
For test [7], the target named is HIV-1 envelope glycoprotein (gp120) of virus CH040 (HIV-1).
The target in test [8] is HIV-1 envelope glycoprotein (gp120) of virus 7595 (HIV-1).
Test [9] deals with HIV-1 envelope glycoprotein (gp120) of virus CH106 (HIV-1).
The target of test [10] is HIV-1 envelope glycoprotein (gp120) of virus THRO (HIV-1).
In test [11] the target is HIV-1 envelope glycoprotein (gp120) of virus 7051 (HIV-1).
For test [12], the target named is HIV-1 envelope glycoprotein (gp120) of virus 8398 (HIV-1).
In test [13] the target is HIV-1 envelope glycoprotein (gp120) of virus 7141 (HIV-1).
Test [14] has as its target HIV-1 envelope glycoprotein (gp120) of virus 8339 (HIV-1).
The target of test [15] is HIV-1 envelope glycoprotein (gp120) of virus 1413 (HIV-1).
In test [16] the target is HIV-1 envelope glycoprotein (gp120) of virus RHPA (HIV-1).
Test [17] addresses HIV-1 envelope glycoprotein (gp120) of virus 7552 (HIV-1).
Test [18] deals with HIV-1 envelope glycoprotein (gp120) of virus 7576 (HIV-1).
Test [19] concerns the target HIV-1 envelope glycoprotein (gp120) of virus 8318 (HIV-1).
In test [20] the target is HIV-1 envelope glycoprotein (gp120) of virus 92US727 (HIV-1). This is another data set of the same source.
Test [21] addresses HIV-1 envelope glycoprotein (gp120) of virus 92US712 (HIV-1).
The target of test [22] is HIV-1 envelope glycoprotein (gp120) of virus VS001 (HIV-1).
Test [23] concerns the target HIV-1 envelope glycoprotein (gp120) of virus 7141 (HIV-1). This is another data set of the same source.

Several values for one entry are separate records, joined by “and”; a condition that tells them apart may be missing. Identical values can stand only once. Like-named read-outs stand apart in the source and are kept apart here.

B1: 1.1.90-1 (antibody, human IgG1, kappa, V domains shown)
VH: QVQLLQSGAAVTKPGASVRVSCEASGYNIRDYFIHWWRQAPGQGLQWVGWINPKTGQPNNPRQFQGRVSLTRHASWDFDTFSFYMDLKALRSDDTAVYFCARQRSDYWDFDVWGSGTQVTVSS
VL: DIQMTQSPSSLSASVGDRATITCQANGYLNWYQQRRGKAPKLLIYDGSKLERGVPSRFSGSRWGQEYNLTISSLQPEDIATYFCQVYEFFGPGTRLDLKR
As for B1, the “Neutralization IC50” value in [1] was 0.41 µg/mL; in [2], 2.17 µg/mL; in test [3], 0.48 µg/mL; in [4], 0.34 µg/mL; in [5] it was 0.39 µg/mL; in [6], > 50 µg/mL. Further, the “Neutralization IC50” value in test [7] is 22.1 µg/mL; in [8], 1.76 µg/mL; in [9], 1 µg/mL; in test [10], 10.6 µg/mL; in [11], 0.44 µg/mL; in test [12] it was > 50 µg/mL. Moreover, the “Neutralization IC50” value in test [13] was 2.24 µg/mL; in [14] it was > 50 µg/mL; in test [15], 1.94 µg/mL; in test [16], 0.15 µg/mL; in test [17], 27.8 µg/mL; in test [18], 0.41 µg/mL. Further, the “Neutralization IC50” value in [19] worked out at 0.57 µg/mL; in test [20], 8.72 µg/mL; in test [21] it was 0.12 µg/mL; in test [22], 0.2 µg/mL; in [23], 2.65 µg/mL.

B2: 1.1.111-1 (antibody, human IgG1, kappa)
heavy: QVQLLQSGAAVTKPGASVRVSCEASGYNIRDYFIHWWRQAPGQGLQWVGWINPKTGQPNNPRQFQGRVSLTRHASWDFDTFSFYMDLKALRSDDTAVYFCARQRSDYWDFDVWGSGTQVTVSSASTKGPSVFPLAPSSKSTSGGTAALGCLVKDYFPEPVTVSWNSGALTSGVHTFPAVLQSSGLYSLSSVVTVPSSSLGTQTYICNVNHKPSNTKVDKKVEPKSCDKTHTCPPCPAPELLAGPDVFLFPPKPKDTLMISRTPEVTCVVVDVSHEDPEVKFNWYVDGVEVHNAKTKPREEQYNSTYRVVSVLTVLHQDWLNGKEYKCKVSNKALPLPEEKTISKAKGQPREPQVYTLPPSREEMTKNQVSLTCLVKGFYPSDIAVEWESNGQPENNYKTTPPVLDSDGSFFLYSKLTVDKSRWQQGNVFSCSVLHEALHSHYTQKSLSLSPGK
light: not shown
Regarding B2, the “Neutralization IC50” value in [1] was 0.48 µg/mL; in test [2], > 50 µg/mL; in [3], 0.4 µg/mL; in test [4] it was 0.3 µg/mL; in [5] it was 0.29 µg/mL; in test [6], > 50 µg/mL. For the same molecule, the “Neutralization IC50” value is 3.71 µg/mL in [7]; 1.31 µg/mL in [8]; 0.86 µg/mL in test [9]; 8.58 µg/mL in test [10]; 0.32 µg/mL in [11]; > 50 µg/mL in test [12]. The “Neutralization IC50” value in test [13] is 29.8 µg/mL; in [14] it was > 50 µg/mL; in [15] it was 2.33 µg/mL; in [16] it was 0.08 µg/mL; in test [17], > 50 µg/mL; in test [18], 0.26 µg/mL. The “Neutralization IC50” value in test [19] is 0.48 µg/mL; in test [20], > 50 µg/mL; in test [21] it was 0.13 µg/mL; in test [22] it was 3.24 µg/mL; in test [23], > 50 µg/mL.

B3: Antibody A-1 (antibody, human IgG1, kappa)
heavy: QVQLLQSGAAVTKPGASVRVSCEASGYNIRDYFIHWWRQAPGQGLQWVGWINPKTGQPNNPRQFQGRVSLTRHASWDFDTFSFYMDLKALRSDDTAVYFCARQRSDYWDFDVWGSGTQVTVSSASTKGPSVFPLAPSSKSTSGGTAALGCLVKDYFPEPVTVSWNSGALTSGVHTFPAVLQSSGLYSLSSVVTVPSSSLGTQTYICNVNHKPSNTKVDKKVEPKSCDKTHTCPPCPAPELLAGPDVFLFPPKPKDTLMISRTPEVTCVVVDVSHEDPEVKFNWYVDGVEVHNAKTKPREEQYNSTYRVVSVLTVLHQDWLNGKEYKCKVSNKALPLPEEKTISKAKGQPREPQVYTLPPSREEMTKNQVSLTCLVKGFYPSDIAVEWESNGQPENNYKTTPPVLDSDGSFFLYSKLTVDKSRWQQGNVFSCSVLHEALHSHYTQKSLSLSPGK
light: not shown
As to B3, the “Neutralization IC50” value in [1] was 1.17 µg/mL; in [2], 2.01 µg/mL; in [3], 0.52 µg/mL; in test [4], 0.42 µg/mL; in test [5], 0.41 µg/mL; in test [6] it was > 50 µg/mL. Besides, the “Neutralization IC50” value in test [7] is 0.57 µg/mL; in test [8], 1.73 µg/mL; in [9] it was 0.91 µg/mL; in [10] it was 6.3 µg/mL; in test [11], 0.52 µg/mL; in test [12], > 50 µg/mL. In addition, the “Neutralization IC50” value in test [13] is 2.45 µg/mL; in test [14], > 50 µg/mL; in [15] it was 2.17 µg/mL; in test [16], 0.12 µg/mL; in [17], 16.6 µg/mL; in test [18] it was 0.34 µg/mL. In addition, the “Neutralization IC50” value was 0.11 µg/mL in test [19]; 3.8 µg/mL and 4.8 µg/mL in test [20]; 0.13 µg/mL in test [21]; 0.18 µg/mL and 0.2 µg/mL in test [22]; 3 µg/mL and 2.9 µg/mL in [23].

B4: 1.1.54-1 (antibody, human IgG1, kappa)
heavy: QVQLLQSGAAVTKPGASVRVSCEASGYNIRDYFIHWWRQAPGQGLQWVGWINPKTGQPNNPRQFQGRVSLTRHASWDFDTFSFYMDLKALRSDDTAVYFCARQRSDYWDFDVWGSGTQVTVSSASTKGPSVFPLAPSSKSTSGGTAALGCLVKDYFPEPVTVSWNSGALTSGVHTFPAVLQSSGLYSLSSVVTVPSSSLGTQTYICNVNHKPSNTKVDKKVEPKSCDKTHTCPPCPAPELLAGPDVFLFPPKPKDTLMISRTPEVTCVVVDVSHEDPEVKFNWYVDGVEVHNAKTKPREEQYNSTYRVVSVLTVLHQDWLNGKEYKCKVSNKALPLPEEKTISKAKGQPREPQVYTLPPSREEMTKNQVSLTCLVKGFYPSDIAVEWESNGQPENNYKTTPPVLDSDGSFFLYSKLTVDKSRWQQGNVFSCSVLHEALHSHYTQKSLSLSPGK
light: not shown
With B4, the “Neutralization IC50” value is 0.4 µg/mL in [1]; 11.2 µg/mL in [2]; 0.45 µg/mL in test [3]; 0.29 µg/mL in test [4]; 0.26 µg/mL in test [5]; > 50 µg/mL in test [6]. Further, the “Neutralization IC50” value is > 50 µg/mL in [7]; 1.62 µg/mL in [8]; 0.9 µg/mL in [9]; 5.47 µg/mL in test [10]; 0.23 µg/mL in test [11]; > 50 µg/mL in test [12]. Besides, the “Neutralization IC50” value in test [13] was 1.61 µg/mL; in test [14], > 50 µg/mL; in test [15] it was 1.72 µg/mL; in [16], 0.03 µg/mL; in test [17] it was 6.22 µg/mL; in test [18], 0.48 µg/mL. The “Neutralization IC50” value in test [19] was 0.32 µg/mL; in [20], > 50 µg/mL; in test [21], 0.16 µg/mL; in test [22] it was 0.32 µg/mL; in [23], 7.08 µg/mL.

Source of the values: patent publication US20220089698A1, “ANTIBODIES THAT TARGET HIV GP120 AND METHODS OF USE” (published 2022).
